# According to US20260250363A1 (AP BIOSCIENCES, published 2026):
# Assays:
# [1] = target: T1, SARS-CoV-2 AY.1 Spike Protein (R&D, Cat. #10922-CV) (SARS-CoV-2); assay: competition ELISA: blocks biotin-ACE2 binding to coated spike
# [2] = target: T2, SARS-CoV-2 C.37 Spike His Protein (R&D, Cat. #10887-CV) (SARS-CoV-2); assay: as above
# [3] = target: T1, SARS-CoV-2 AY.1 Spike Protein (R&D, …); assay: BLI (ForteBio), mAb on AHC sensor, spike in solution
# [4] = target: T3, SARS-CoV-2 Spike Protein, wild type (R&D, Cat. #10549-CV) (SARS-CoV-2); assay: as above
# [5] = target: T2, SARS-CoV-2 C.37 Spike His Protein (R&D, …); assay: as above
# [6] = target: T1, SARS-CoV-2 AY.1 Spike Protein (R&D, …); assay: direct ELISA on coated spike
# [7] = target: T2, SARS-CoV-2 C.37 Spike His Protein (R&D, …); assay: direct ELISA on coated spike
# [8] = target: T3, SARS-CoV-2 Spike Protein, wild type …; assay: competition ELISA: blocks biotin-ACE2 binding to coated spike
binder,measurement,setting,value
"anti-SARS-CoV-2 antibody clone R4-1a-51 (antibody, V domains shown) VH: QVQLVQSGAEVKKPGASVKVSCKASGYTFTGYYMHWVRQAPGQGLEWMGRINPNSGGTNYAQKFQGRVAMTRDTSISTAYMELSRLRSDDTAVYYCARGYMDYWGQGTPVTVSS VL: QSVLTQPPSASGTPGQRVTISCSGSSSNIGSSTVNWYQQLPETAPKLLIYSNHQRPSGVPDRFSGSKSGTSASLALSGLQSEDEAEYYCAAWDDSLNGVVFGGGTKLTVLG",IC50,[1],0.723 nM
same,IC50,[2],2.78 nM
same,Kd,[3],1.26 nM
same,Kd,[4],2.72 nM
same,Kd,[5],1.21 nM
same,EC50,[6],0.0881 nM
same,EC50,[7],0.0771 nM
same,IC50,[8],6 nM
